According to PubChem BioAssay AID602142 (NMMLSC, 2011):
The list shows a part of the results, in another mix than the full data. Calls of active or inactive are those of the source. How the calls were made is not given here.

Molecular target: Lethal factor (Bacillus anthracis) (UniProt P15917)
Experiment: Bacillus anthracis LF protease inhibitors, confirmation, biochemical, multiplex microsphere, cherry pick 1 (AID 602142)
Settings: multiplex microsphere protease cleavage assay, at 10 µM, active compounds read high

CN1CCC(Nc2ccc(F)c(Cl)c2)CC1
inhibition: inactive: 0.1%
